Assay type in all cases: cell-based
The test system of data set [1] is Plasmodium Falciparum k1 strain. In words: Chloroquine-resistant tropical malaria protozoa proliferation inhibition screening test. As to conditions: EC50 rat L6 cells / EC50 Chloroquine-resistant malaria protozoa. The protocol: In this experiment, Plasmodium Falciparum k1 strain protozoa were used. The medium used in the experiment was filter-sterilized RPMI-1640 medium. To the medium human serum was added to achieve 5% concentration. The protozoa was cultured under condition of O2 concentration 3%, CO2 concentration 4%, N2 concentration 93%, and temperature 37° C.
The cultured malaria infected red blood cells were collected by centrifugation, diluted with non-infected red blood cells, to achieve initial infection rate 0.15%. The hematocrit was 2.5%.
To each well in a 96-well culture plate, 200 μL malaria infected culture was added, and either test solution containing test compound at predefined concentration or DMSO having no test compound was added. Each test solution was prepared in duplicate. After 48 hours culture under 37° C., hypoxanthine labeled with radioactive tritium (^3H) of 0.5 μCi was added to each well. After culturing under same condition for 24 hours, the product was collected on a glass fiber filter and washed. The intensity of radiation was measured by Beta plate liquid scintillation counter (Wallac Inc.), to determine malaria protozoa infection rate in test compound samples and control samples.
Using the malaria protozoa infection rate, the proliferation inhibition rate was calculated according to the following equation to determine 50% proliferation inhibition concentration (EC50).
Proliferation inhibition rate(%)={1−(b−a)/(c−a)}×100
a: initial infection rate b: infection rate of test compound solution c: infection rate of the control

In data set [2] the test system is Leishmania donovani (MHOM/ET/67/L82 strain). In words: Leishmania protozoa proliferation inhibition screening test. The note with it: EC50 rat L6 cells / EC50 leishmania protozoa. The protocol:
In this experiment, Leishmania donovani (MHOM/ET/67/L82 strain) was used. The protozoa were successively cultured in Syrian Golden hamsters to obtain amastigote. The medium used in the experiment was SM medium having heat-treated fetal bovine serum 10% added, and pH prepared to 5.4. The culture was conducted under CO2 concentration 5% and temperature 37° C.
Either the compound of the invention or a positive control (miltefosine) was dissolved into DMSO to prepare test solution having predefined concentration. To each well of a 96-well culture plate, medium containing predetermined number of protozoa was added and the culture was pre-treated. The concentration of amastigote was determined by CASY cell analyze system (Scharfe GMBH Co., Germany). Subsequently, either test solution containing compound of the invention in predefined concentration or DMSO without compound was added. The test solution was duplicated.
The plate was cultured in an incubator for 72 hours, and the proliferation inhibition activity was examined. The activity was determined as follows. […] Then the culture plate was mounted on a fluorescence microplate reader (Spectramax Gemeni XS; Molecular Devices Corporation, U.S), and irradiated 536 nm excitation wavelength to determine […] at 588 nm. The leishmania infection rate of the sample containing the test compound and that of the control sample was calculated. […]

In data set [3] the test system is Trypanosoma brucei rhodensiense (STIB 900 strain). Description: African trypanosoma protozoa proliferation inhibition screening test. As to conditions: EC50 rat L6 cells / EC50 African trypanosoma protozoa. The protocol: In this experiment, bloodstream form trypomastigote of Trypanosoma brucei rhodensiense (STIB 900 strain) was used. The medium used in the experiment was prepared as follows: to filter-sterilized MEM medium, 25 mM N-2-hydroxyethylpiperazine-2-ethane sulfonate (HEPES), 1 g/L glucose, 1% MEM nonessential amino acid, 0.2 mM 2-mercaptoethanol, 2 mM pyruvic calcium salt, 0.1 mM hypoxanthine, and 15% heat-treated horse serum were added. The protozoa was cultured under atmosphere of CO2 concentration 5% and temperature 37° C.
Either the compound of the invention or a positive control (melarsoprol) was dissolved into dimethylsulfoxide (DMSO) to prepare test solution having predefined concentration. To each well in a 96-well culture plate, medium containing 8×10^3 protozoa, and either test solution containing the test compound at predefined concentration or DMSO without compound was added. […]
The culture plate was cultured in an incubator for 72 hours, and the proliferation inhibition activity was examined. The activity was determined as follows. […] Then the culture plate was mounted on a fluorescence microplate reader (Spectramax Gemeni XS; Molecular Devices Corporation, U.S.), and irradiated with 536 nm excitation wavelength to determine fluorescence at 588 nm. The trypanosoma infection rate of the sample containing the test composition and that of the control sample was calculated. […]

Each structure is given as a SMILES string.

For `CCN1C(=O)/C(=C/C=C2\Sc3ccccc3N2C)S/C1=N\c1sc2cc(Cl)ccc2[n+]1C` [Compound C-2], the Selective toxicity in data set [1] stood at 454.

`CCN1C(=O)/C(=c2/s/c(=C3/C=CC=CN3C)c(=O)n2CC)S/C1=N\c1scc[n+]1C` [Compound B-19] had a Selective toxicity in data set [1] of 1628.

On to `C=CCN1C(=O)/C(=c2/s/c(=C3/C=CC=CN3C)c(=O)n2CC)S/C1=N\c1scc[n+]1C` [Compound B-40], for which the Selective toxicity in data set [1] was found to be 2282.

As for `CCN1C(=O)/C(=c2/s/c(=C3/C=CC=CN3C)c(=O)n2CC)S/C1=N\c1sc2cc(OC)ccc2[n+]1C` [Compound B-28], the Selective toxicity came out at 715 in data set [1], 135 in data set [2] and 119 in data set [3].

As to `CCN1C(=O)/C(=c2/s/c(=C3/SCCN3C)c(=O)n2CC)S/C1=N\c1sc2cc(OC)ccc2[n+]1C` [Compound B-29], the Selective toxicity in data set [1] is reported as 330; in data set [2] it was greater than 49; in data set [3], 86.

For the origin of these results see patent US20090076067A1, “PHARMACEUTICAL COMPOSITION COMPRISING AZARHODACYANINE COMPOUND AS ACTIVE INGREDIENT” (priority 2005, published 2009).
